Measured values taken from the supplement of paper PMC3578754.
Fold change is the IC50 on the isolate divided by the IC50 on a reference virus; 1 = unchanged, higher = more resistant. Changes are given against the subtype B consensus. No active / inactive call. The values were gathered from many studies (numbered anew) with different assays, which the source does not name. Most viruses are clinical isolates; some are laboratory strains or clones with known resistance changes. Isolates with mixed residues are left out; stretches that were not sequenced show no change. Round top values that many isolates share are read here as limits; other very high values and 0.1 may be limits too.

Experiments:
Assay in all cases: fold change of IC50 against reference virus; higher = more resistant
tenofovir = compound: C[C@H](Cn1cnc2c(N)ncnc21)OCP(=O)(O)O [tenofovir]
Description: (§1)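 Cell-culture drug susceptibility tests of virus bearing the reverse transcriptase of each isolate, gathered from many studies.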

emtricitabine = compound: Nc1nc(=O)n([C@@H]2CS[C@H](CO)O2)cc1F [emtricitabine]
Description: as §1

nevirapine = compound: Cc1ccnc2c1NC(=O)c1cccnc1N2C1CC1 [nevirapine]
Description: as §1

efavirenz = compound: O=C1Nc2ccc(Cl)cc2[C@@](C#CC2CC2)(C(F)(F)F)O1 [efavirenz]
Description: as §1

delavirdine = compound: CC(C)Nc1cccnc1N1CCN(C(=O)c2cc3cc(NS(C)(=O)=O)ccc3[nH]2)CC1 [delavirdine]
Description: as §1

didanosine = compound: O=c1[nH]cnc2c1ncn2[C@H]1CC[C@@H](CO)O1 [didanosine]
Description: as §1

zidovudine = compound: Cc1cn([C@H]2C[C@H](N=[N+]=[N-])[C@@H](CO)O2)c(=O)[nH]c1=O [zidovudine]
Description: as §1

abacavir = compound: Nc1nc(NC2CC2)c2ncn([C@H]3C=C[C@@H](CO)C3)c2n1 [abacavir]
Description: as §1

stavudine = compound: Cc1cn([C@H]2C=C[C@@H](CO)O2)c(=O)[nH]c1=O [stavudine]
Description: as §1

Test System	fold change of IC50 against reference virus (tenofovir)	fold change of IC50 against reference virus (emtricitabine)	fold change of IC50 against reference virus (nevirapine)	fold change of IC50 against reference virus (efavirenz)	fold change of IC50 against reference virus (delavirdine)	fold change of IC50 against reference virus (didanosine)	fold change of IC50 against reference virus (zidovudine)	fold change of IC50 against reference virus (abacavir)	fold change of IC50 against reference virus (stavudine)
HIV-1 isolate 1088 (reverse transcriptase changes: K64R K103N K122P I135T D177E P225H E248D T286A I326V Y342F, study 15)	1.4	1.3	300	400	110	1.2	2.3	1.1	1.3
HIV-1 isolate 1538 (reverse transcriptase changes: V35I T69I R83K K122E D123S I135V S163T E169D D177E I178M V179I M184V R211K V245K E248D A272P K275R R284K, study 15)	0.4	300	0.8	0.8	0.8	1.4	0.4	2.7	0.7
HIV-1 isolate 61 (reverse transcriptase changes: V118I K122R D123E G196E Q207E R211K F214L, study 15)	0.9	0.9	1	1	1.2	0.9	1.2	0.8	0.8
HIV-1 isolate 1572 (reverse transcriptase changes: M41L K43Q K49R V60I D67N R83K K101E D123E V179I M184V G190S R211K T215F M230L D237E A272P T286A E297K, study 15)	1.6	≥ 200	300	≥ 500	5.7	1.4	40	5.5	1.9
HIV-1 isolate 1370 (reverse transcriptase changes: E28A M41L V60I D67G S68G K70R L74V K101E K122E I135T I178M Y181V G190A T215Y K219E, study 83)	2.2	4.2	≥ 400	700	≥ 250	1.6	177	4.9	2.9
HIV-1 isolate 1525 (reverse transcriptase changes: S3N V21A E28A T39I L74V Y115F K122E D123E I135T M184V G190S G196E F214L A272P L283I E297V, study 15)	0.7	300	500	≥ 500	3.2	2.9	0.6	20	1.2
HIV-1 isolate 378 (reverse transcriptase changes: D121Y K122E D177E A272P K281R L283I A288T T296S, study 15)	1.1	1.2	1.8	1.9	3.6	1.1	1	1.1	1
HIV-1 isolate 1063 (reverse transcriptase changes: K43Q K49R D67N K70R K103N D123E I135M M184V T200A R211K K219Q K223R A272P V276I K281R T286A, study 15)	1.2	≥ 200	40	13	107	1.4	5.7	3.7	1.6
HIV-1 isolate 489 (reverse transcriptase changes: E40F M41L K43E D67N V108I V118I K122E D123E Y181C L210W R211K T215Y K219N A272P T286A, study 65)	4.6	7.6	≥ 400	1.2	56	2.5		6.8	6.4
HIV-1 isolate 654 (reverse transcriptase changes: V35I V118I D123E D177E R211K F214L V245M E248D D250E A288S, study 15)	0.8	1	0.8	0.8	1.1	1.1	0.9	1	1.2
HIV-1 isolate 1111 (reverse transcriptase changes: E6K V35I T39A I47F D67N T69N K70R A98S Y181C T200A R211K F214L T215F D218E K219E E224D L228H V245M T286P, study 15)	1.5	4.5	110	1.1	39	1.6	14	2	2.1
HIV-1 isolate 881 (reverse transcriptase changes: V35I R83K D123E I135T D177E V245K A272P Q278Y, study 15)	0.9	1.1	0.8	0.7	1.1	1.1	0.9	0.7	0.9
HIV-1 isolate 433 (reverse transcriptase changes: K20R A33G D67G T69D K70R V118I K122E I135T M184V Q197P T200A F214L K219Q T286P I293V E297A, study 15)	0.8	≥ 200	0.4	0.5	0.8	1.3	2.4	3.6	1.2
HIV-1 isolate 130 (reverse transcriptase changes: K20T K49R R83K K122E E138A T200I I202V V245E A272P T296S, study 15)	0.7	1	1.6	1.4	2.5	1	0.7	0.8	0.8
HIV-1 isolate 909 (reverse transcriptase changes: V35I K101Q K103N K122E I135K G196E V245E E248D A272P E297R, study 15)	1	0.9	94	68	91	1.2	1.3	1.2	1
HIV-1 isolate 7 (reverse transcriptase changes: D67G S68G K70R V108I D123E I135T I142V D177E M184V T200A R211K T215F K219E E297K, study 15)	1.2	≥ 200	2.9	2.1	1.6	1.4	23	5	1.4
HIV-1 isolate 244 (reverse transcriptase changes: V21I V35M K43Q D67G S68G K70R V90I K104N I135T E138Q S162A M184V T215F K219Q A272P K277R T286A E297K, study 15)	1.7	≥ 200	2.8	1.2	5.3	2	65	6.5	1.7
HIV-1 isolate 733 (reverse transcriptase changes: V35I K102R D121H K122E I135V S162C D177E I178L Y188H A272S I293V, study 15)	1.1	0.9	3.6	7.3	12	0.6	2.5	0.7	0.8
HIV-1 isolate 1636 (reverse transcriptase changes: A98S V106A I135T Q197P R211G F214L A272P T286A E297R, study 15)	0.9	0.8	150	2.5	17	0.9	1.2	0.9	1.1
HIV-1 isolate 848 (reverse transcriptase changes: Y188L T215Y, study 15)	1.4	2.7	300	20	2.1	1.2	5.7	2.1	1.6
HIV-1 isolate 869 (reverse transcriptase changes: T39A M41L D67N L74V V118I K122E I135T I142V M184V R211K T215Y D218E K219Q R284K, study 15)	0.6	≥ 200	0.3	0.3	0.3	2.5		7.4	2
HIV-1 isolate 598 (reverse transcriptase changes: K20R T39N V60I D67N T69N K70R K122E I135T Q174H D177E V179I M184V I195T T200A R211T F214L K219Q A272P L282F A288T E297K, study 15)	0.8	≥ 200	0.2	0.2	0.2	1.1	1.1	2.6	0.9
HIV-1 isolate 1163 (reverse transcriptase changes: K43Q K49R K70R K103N D123E I135M M184V T200A R211K K219Q K223R A272P K275I K281R T286A, study 15)	0.7	≥ 200	25	8.7	75	1.3	2.7	2.9	1
